Percent effect of library compounds

Each number is a percent effect as filed. The record does not define 0% and 100%; most values in the screen are far below 50% and negative numbers occur (in some assays of this library far below -100). The entries come from a sample that favours strong results.

Mtb glucose medium: 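Growth of Mycobacterium tuberculosis over 3 days (7H9 medium with glucose and tyloxapol); the read-out is not stated. Tested at 500 µM. The record gives no direction; compounds that gave an IC50 in retests scored well above the rest, so higher reads as more growth inhibition. Size under these conditions: about 18,000 compounds, about 1,400 of them at 50% or above in at least one test.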
Mtb cholesterol medium: 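Growth of Mycobacterium tuberculosis over 4 days (cholesterol / DPPC medium with tyloxapol); the read-out is not stated. Concentration: 500 µM. Higher reads as more growth inhibition (inferred: compounds with an IC50 in retests scored well above the rest). About 18,000 compounds were tested under these conditions; 5% (about 900) showed 50% or more at least once.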

CCN(C(=O)c1ccc(=O)n(C)n1)C1CCCC1 read Mtb cholesterol medium: -0.08588%.
NCc1cc(Oc2ccc(F)cc2)ccn1 read Mtb glucose medium: -13.43%; Mtb cholesterol medium: -23.45%.
O=C(Nc1cccc(-n2cccn2)c1)N1CCSCC1 read Mtb glucose medium: 66.88%; Mtb cholesterol medium: 55.09%.
O=c1[nH]c2cc(Cl)ccc2c(=O)n1CC1CCCO1 (centres unmarked) read Mtb cholesterol medium: 4.66%.
CN(Cc1ccsc1)Cc1ccc(S(=O)(=O)N(C)C)o1 read Mtb cholesterol medium: 62.57%.
CN(C(=O)CC(N)c1ccccc1)c1cccc(F)c1 (centres unmarked) read Mtb glucose medium: 8.001%; Mtb cholesterol medium: 7.259%.
CC(C)C1CCCCN1C(=O)CCS(C)(=O)=O (centres unmarked) read Mtb glucose medium: 40.74%.
Cc1ccc(NC(=O)Cn2ccnc2)cc1 read Mtb glucose medium: 62.25%; Mtb cholesterol medium: 69.96%.
OCC1CCN(Cc2ccccc2)C1 (centres unmarked) read Mtb cholesterol medium: 5.21%.
CNC(=O)C1CCCCN1C(=O)c1ccc(Cl)o1 (centres unmarked) read Mtb glucose medium: 11.66%.
CN(C)c1ncccc1C(=O)Nc1ccc(C#N)cn1 read Mtb glucose medium: -1.148%.
O=C(Nc1cccc(F)c1)N1CCCN(CCO)CC1 read Mtb cholesterol medium: 7.31%.
Cc1ccc(C(=O)NCCCS(C)(=O)=O)c(O)c1 read Mtb glucose medium: 26.46%; Mtb cholesterol medium: 1.672%.
COCC(O)CNc1ccc2ccc(F)cc2n1 (centres unmarked) read Mtb glucose medium: 39.19%.
Cc1ccc2[nH]cc(CCN)c2c1 read Mtb glucose medium: 35.82%; Mtb cholesterol medium: 42.12%.
O=c1ccc(F)cn1Cc1cnn(-c2ccccc2)n1 read Mtb glucose medium: -10.91%.
O=C(OCc1cc(=O)n2ccsc2n1)c1ccccc1 read Mtb glucose medium: -20.65%.
CC(C)NC(=O)NCC1(N2CCOCC2)CCSC1 (centres unmarked) read Mtb glucose medium: 50.83%.
Cn1cc(I)c(=O)n(Cc2ccccn2)c1=O read Mtb glucose medium: -13.55%.
COc1cc(C(=O)NC2CC2)cc(Cl)c1O read Mtb glucose medium: 25.83%.
COc1ncc(C)cc1NC(=O)CC1CCCO1 (centres unmarked) read Mtb cholesterol medium: -4.113%.
CN(C)C(=O)Nc1cc(F)cc(F)c1 read Mtb glucose medium: 102.5%; Mtb cholesterol medium: 117.3%.
CCC(C)(C)NCc1nnnn1C1CC1 read Mtb glucose medium: -1.67%.
CC(C)n1nccc1NC(=O)CNC(=O)c1cccs1 read Mtb glucose medium: 7.134%.
CN1CCCN(C(=O)COc2ccc(F)cc2Cl)CC1 read Mtb glucose medium: 7.508%; Mtb cholesterol medium: 10.46%.
Cc1nc(C)n(C(C)CC(=O)Nc2cccnc2)n1 (centres unmarked) read Mtb glucose medium: -0.7261%.
CC(C)NC(=O)CN1CCCN(c2ccccn2)CC1 read Mtb cholesterol medium: 17.53%.
CC[C@H](O)CN(CCNC(C)=O)C(C)C read Mtb cholesterol medium: -6.282%.
Cc1cccc2c(=O)[nH]cnc12 read Mtb cholesterol medium: -5.301%.
Cc1ccc(C(=O)NCC(=O)NC(C)(C)C)c(O)c1 read Mtb glucose medium: 50.03%.
CC(Nc1ccc(F)cc1)C(=O)N1CCCC1 (centres unmarked) read Mtb glucose medium: 59.62%; Mtb cholesterol medium: 51.75%.
CC(=O)Nc1cncc(Cl)n1 read Mtb glucose medium: 1.837%.
CNC(=O)N(C)C(C)C1CCN(C)CC1 (centres unmarked) read Mtb cholesterol medium: 3.505%.
CNC(=O)c1ccc(C)c(NC(=O)C2=CSCCO2)c1 read Mtb glucose medium: 5.955%.
CSc1cccc(C#N)n1 read Mtb glucose medium: 8.963%.
COc1c(C)cnc(CNC(=O)N(C)C(C)C)c1C read Mtb glucose medium: 4.585%.
CCc1cccc(NC(=O)C2(N)CC2)c1 read Mtb cholesterol medium: 0.2123%.
CCN1CC(C(=O)Nc2cn(C)cc(Br)c2=O)CC1=O (centres unmarked) read Mtb cholesterol medium: 5.426%.
COC[C@H]1CC[C@H]1N read Mtb glucose medium: 8.302%.
CCOc1ncccc1C(=O)Nc1nnc[nH]1 read Mtb glucose medium: -9.231%.
NC(=O)CN(Cc1ccsc1)C1CC1 read Mtb cholesterol medium: 4.37%.
CN(C)Cc1ccc(C(=O)NCCCc2ccco2)o1 read Mtb cholesterol medium: 29.06%.
CN(CC(=O)Nc1ccc(Br)cn1)C1CCOC1=O (centres unmarked) read Mtb glucose medium: 20.76%.

Source: ChEMBL document CHEMBL3988442, “University of Dundee, Small-Polar-MMV Screening Library” (2021).